# Measured values as given in patent publication US12708649B2, “Compositions and methods for improving skin health and for the treatment and prevention of diseases, disorders and conditions associated with fungi and other pathogenic microbes” (priority 2020, dated 2026).
# Several values for one entry are separate records, joined by “and”; a condition that tells them apart may be missing. Equal values may be shown once.
# Test system: Alcaligenes faecalis DB05646 / Malassezia furfur cultures
# Test: Metabolite profile by LC-MS: DB05646 single culture and co-culture with M. furfur
# Settings: not given
Compound,Fold of change Coculture vs M.furfur,Fold of change Coculture vs DB05646 [fold],Fold of change Coculture vs Media [fold],Fold of change DB05646 vs Media [fold],Fold of change M.furfur vs Media [fold]
NC(=O)NCCCC[C@H](N)C(=O)O [homocitrulline],significantly lower,,,,
CCN(CC)C(=O)c1cccnc1 [Nikethamide],238.5 fold,0.4,210.5,579.2,0.9
CC(C)C[C@H](NC(=O)CC[C@H](N)C(=O)O)C(=O)O [L-gamma-Glutamyl-L-leucine],4.0 fold,4.6,15.3,3.3,3.8
CCCCC#N [Valeronitrile],44.8 fold,1.1,62.8,57.5,1.4
CC(=O)NCCCC[C@H](N)C(=O)O [N6-Acetyl-L-lysine],2.9 fold,0.7,38.9,57.5,13.3

# Same assay, conditions: DB05646-M. furfur co-culture
Compound,Fold of change Coculture vs DB05646,Fold of change Coculture vs M.furfur [fold],Fold of change Coculture vs Media [fold]
Cc1c[nH]c(=O)[nH]c1=O [Thymine],11.5 fold,14.1,0.8
Nc1cc[nH]c(=O)n1 [Cytosine],0.3 fold,5.5,0.9
COC(=O)Cc1c[nH]c2ccccc12 [Methyl indole-3-acetate],0.9 fold,7.5,9.1
CNc1ncnc2c1ncn2[C@@H]1O[C@H](CO)[C@@H](O)[C@H]1O [N(6)-Methyladenosine],0.0 fold,0.0,0.7
Hexose dimer1,0.1 fold,0.2,1.1
O=C(O)c1ccc(O)o1 [5-Hydroxy-2-furoic acid],2.2 fold,2.6,5.1
NC(=O)[C@@H]1CCCN1 [Prolinamide],0.7 fold,123.7,13.8
CC(O)CC(=O)O (stereo not shown) [3-Hydroxybutyric acid],0.9 fold,17.3,0.2
NCCCC[C@H](NC=O)C(N)=O [(2S)-6-Amino-2-[(E)-(hydroxymethylene)amino]hexanimidic acid],0.7 fold,4.3,5.9
COC(=O)CC(C)=O [Methyl acetoacetate],0.6 fold,8.1,14.2
O=C(O)CN1CCOCC1 [4-Morpholinylacetic acid],1.0 fold and 0.6 fold,,
C1=NCCC1 [1-pyrroline],0.6 fold,1.1,78.9
O=C(O)C1CCCCN1 (stereo not shown) [Pipecolinic acid],1.0 fold,101.2,228.5
CC(=O)N[C@@H](Cc1c[nH]c2ccccc12)C(=O)O [N-Acetyltryptophan],1.1 fold,12.4,0.2
O=C(O)C1=NCCCC1 [D-1-Piperideine-2-carboxylic acid],0.6 fold,4.3,1865.8
CC(=O)NCCCNCCCC(=O)O [4-[(3-Acetamidopropyl)amino]butanoic acid],3.2 fold,6.6,2.7
O=Cc1ccco1 [Furfural],0.5 fold,7.1,2.3
CC(=O)NCC[C@H](N)C(=O)O [(2S)-4-Acetamido-2-aminobutanoic acid],1.1 fold,4.0,157.1
O=C(CO)[C@H](O)[C@H](O)COP(=O)(O)O [Ribulose-5-phosphate],2.4 fold,9.9,305.2
CC/C(=C(\c1ccc(O)cc1)c1ccc(OCCN)cc1)c1ccccc1 [(Z)-Norendoxifen],0.6 fold,4.2,13.3
NC(CCCC(=O)O)C(=O)O (stereo not shown) [Aminoadipic acid],0.6 fold,90.8,68.0
O=c1cc[nH]c(=O)[nH]1 [Uracil],78.1 fold,76.7,55.3
CCN(CC)CCNC(=O)c1ccc(NC(C)=O)cc1 [N-Acetylprocainamide],0.1 fold,11.8,13.1
N#CCC(=O)NCC1CCCO1 (stereo not shown) [N1-tetrahydrofuran-2-ylmethyl-2-cyanoacetamide],0.4 fold,4.3,3.3

# Same assay, conditions: DB05646 single culture, Media 22, 48 hours
row,Compound,Fold of change DB05646 vs Media
1,Cc1c[nH]c(=O)[nH]c1=O [Thymine],0.1 fold
2,Nc1cc[nH]c(=O)n1 [Cytosine],2.7 fold
3,COC(=O)Cc1c[nH]c2ccccc12 [Methyl indole-3-acetate],10.3 fold
4,CNc1ncnc2c1ncn2[C@@H]1O[C@H](CO)[C@@H](O)[C@H]1O [N(6)-Methyladenosine],19.3 fold
5,Hexose dimer1,8.2 fold
6,O=C(O)c1ccc(O)o1 [5-Hydroxy-2-furoic acid],2.3 fold
7,NC(=O)[C@@H]1CCCN1 [Prolinamide],20.6 fold
8,CC(O)CC(=O)O (stereo not shown) [3-Hydroxybutyric acid],0.2 fold
9,NCCCC[C@H](NC=O)C(N)=O [(2S)-6-Amino-2-[(E)-(hydroxymethylene)amino]hexanimidic acid],8.0 fold
10,COC(=O)CC(C)=O [Methyl acetoacetate],23.2 fold
11,O=C(O)CN1CCOCC1 [4-Morpholinylacetic acid],196.9 fold and 109.4 fold
12,C1=NCCC1 [1-pyrroline],129.6 fold
13,O=C(O)C1CCCCN1 (stereo not shown) [Pipecolinic acid],230.6 fold
14,CC(=O)N[C@@H](Cc1c[nH]c2ccccc12)C(=O)O [N-Acetyltryptophan],0.2 fold
15,O=C(O)C1=NCCCC1 [D-1-Piperideine-2-carboxylic acid],2874.9 fold
16,CC(=O)NCCCNCCCC(=O)O [4-[(3-Acetamidopropyl)amino]butanoic acid],0.8 fold
17,O=Cc1ccco1 [Furfural],4.7 fold
18,CC(=O)NCC[C@H](N)C(=O)O [(2S)-4-Acetamido-2-aminobutanoic acid],146.2 fold
19,O=C(CO)[C@H](O)[C@H](O)COP(=O)(O)O [Ribulose-5-phosphate],126.7 fold
20,CC/C(=C(\c1ccc(O)cc1)c1ccc(OCCN)cc1)c1ccccc1 [(Z)-Norendoxifen],22.4 fold
21,NC(CCCC(=O)O)C(=O)O (stereo not shown) [Aminoadipic acid],106.4 fold
22,O=c1cc[nH]c(=O)[nH]1 [Uracil],0.7 fold
23,CCN(CC)CCNC(=O)c1ccc(NC(C)=O)cc1 [N-Acetylprocainamide],178.8 fold
24,N#CCC(=O)NCC1CCCO1 (stereo not shown) [N1-tetrahydrofuran-2-ylmethyl-2-cyanoacetamide],7.8 fold

# Same assay, conditions: M. furfur single culture
row,Compound,Fold of change M.furfur vs Media
1,Cc1c[nH]c(=O)[nH]c1=O [Thymine],0.1 fold
2,Nc1cc[nH]c(=O)n1 [Cytosine],0.2 fold
3,COC(=O)Cc1c[nH]c2ccccc12 [Methyl indole-3-acetate],1.2 fold
4,CNc1ncnc2c1ncn2[C@@H]1O[C@H](CO)[C@@H](O)[C@H]1O [N(6)-Methyladenosine],16.3 fold
5,Hexose dimer1,6.3 fold
6,O=C(O)c1ccc(O)o1 [5-Hydroxy-2-furoic acid],2.0 fold
7,NC(=O)[C@@H]1CCCN1 [Prolinamide],0.1 fold
8,CC(O)CC(=O)O (stereo not shown) [3-Hydroxybutyric acid],0.0 fold
9,NCCCC[C@H](NC=O)C(N)=O [(2S)-6-Amino-2-[(E)-(hydroxymethylene)amino]hexanimidic acid],1.4 fold
10,COC(=O)CC(C)=O [Methyl acetoacetate],1.8 fold
11,O=C(O)CN1CCOCC1 [4-Morpholinylacetic acid],247.0 fold and 366.5 fold
12,C1=NCCC1 [1-pyrroline],70.1 fold
13,O=C(O)C1CCCCN1 (stereo not shown) [Pipecolinic acid],2.3 fold
14,CC(=O)N[C@@H](Cc1c[nH]c2ccccc12)C(=O)O [N-Acetyltryptophan],0.0 fold
15,O=C(O)C1=NCCCC1 [D-1-Piperideine-2-carboxylic acid],434.3 fold
16,CC(=O)NCCCNCCCC(=O)O [4-[(3-Acetamidopropyl)amino]butanoic acid],0.4 fold
17,O=Cc1ccco1 [Furfural],0.3 fold
18,CC(=O)NCC[C@H](N)C(=O)O [(2S)-4-Acetamido-2-aminobutanoic acid],39.6 fold
19,O=C(CO)[C@H](O)[C@H](O)COP(=O)(O)O [Ribulose-5-phosphate],30.7 fold
20,CC/C(=C(\c1ccc(O)cc1)c1ccc(OCCN)cc1)c1ccccc1 [(Z)-Norendoxifen],3.1 fold
21,NC(CCCC(=O)O)C(=O)O (stereo not shown) [Aminoadipic acid],0.7 fold
22,O=c1cc[nH]c(=O)[nH]1 [Uracil],0.7 fold
23,CCN(CC)CCNC(=O)c1ccc(NC(C)=O)cc1 [N-Acetylprocainamide],1.1 fold
24,N#CCC(=O)NCC1CCCO1 (stereo not shown) [N1-tetrahydrofuran-2-ylmethyl-2-cyanoacetamide],0.8 fold
